This is an account of results in paper PMC8950151, “Synthesis and Evaluation of the Antifungal and Toxicological Activity of Nitrofuran Derivatives” (Pharmaceutics, 2022).

Each structure is given as a SMILES string.

For series [1], the system named is A549 (ATCC CCL-185) lung epithelial cell line. Put plainly: Cytotoxicity assay in monolayer by resazurin colorimetric method. The series is classed as cell-based, human. The conditions noted are these: for Calculated SI C. albicans: A549 IC50 versus MIC90 of C. albicans; for Calculated SI C. glabrata: A549 IC50 versus MIC90 of C. glabrata; for Calculated SI C. krusei: A549 IC50 versus MIC90 of C. krusei; for Calculated SI C. neoformans: A549 IC50 versus MIC90 of C. neoformans; for Calculated SI P. brasiliensis: A549 IC50 versus MIC90 of P. brasiliensis; for Calculated SI T. mentagrophytes: A549 IC50 versus MIC90 of T. mentagrophytes; for Calculated SI T. rubrum: A549 IC50 versus MIC90 of T. rubrum.

In series [2] the test system is MRC-5 (ATCC CCL-171) pulmonary fibroblast cell line. The conditions noted are these: for Calculated SI C. albicans: MRC-5 IC50 versus MIC90 of C. albicans; for Calculated SI C. glabrata: MRC-5 IC50 versus MIC90 of C. glabrata; for Calculated SI C. krusei: MRC-5 IC50 versus MIC90 of C. krusei; for Calculated SI C. neoformans: MRC-5 IC50 versus MIC90 of C. neoformans; for Calculated SI T. rubrum: MRC-5 IC50 versus MIC90 of T. rubrum.

`O=C(/C=C/c1ccc([N+](=O)[O-])o1)c1ccc(Cl)cc1Cl` [Compound 16, (E)-1-(2,4-dichlorophenyl)-3-(5-nitrofuran-2-yl)prop-2-en-1-one]: in series [1], the “Calculated SI C. albicans” value was 0.14, the “Calculated SI C. glabrata” value is reported as 0.14, the “Calculated SI C. krusei” value was 0.14 and the “Calculated SI C. neoformans” value is reported as 0.14. For the same molecule, in series [1], the “Calculated SI P. brasiliensis” value is 17.96, the “Calculated SI T. mentagrophytes” value is 4.56 and the “Calculated SI T. rubrum” value is recorded as 4.56. Besides, in series [2], the “Calculated SI C. albicans” value is reported as 0.11, the “Calculated SI C. glabrata” value is 0.11, the “Calculated SI C. krusei” value was 0.11 and the “Calculated SI C. neoformans” value is 0.11. Also, the “Calculated SI T. rubrum” value in series [2] is given as 3.83.
Consider `O=C(NCCCc1ccccc1)c1ccc([N+](=O)[O-])o1` [Compound 5], for which, in series [1], the “Calculated SI C. albicans” value was 0.24, the “Calculated SI C. glabrata” value was 0.24, the “Calculated SI C. krusei” value was 0.48 and the “Calculated SI P. brasiliensis” value is reported as 1.92. For the same molecule, in series [1], the “Calculated SI T. mentagrophytes” value is recorded as 0.96 and the “Calculated SI T. rubrum” value is reported as 1.92. In addition, in series [2], the “Calculated SI C. albicans” value is 0.31, the “Calculated SI C. glabrata” value is listed as 0.31, the “Calculated SI C. krusei” value was 0.63 and the “Calculated SI C. neoformans” value is 10.19. For the same molecule, the “Calculated SI T. rubrum” value in series [2] is given as 2.54.
Regarding `O=C(NCCc1c[nH]c2ccccc12)c1ccc([N+](=O)[O-])o1` [Compound 7], in series [1], the “Calculated SI C. albicans” value is given as 0.03, the “Calculated SI C. glabrata” value was 0.03, the “Calculated SI C. krusei” value was 0.03 and the “Calculated SI C. neoformans” value is listed as 0.13. Also, in series [1], the “Calculated SI P. brasiliensis” value is reported as 4.40, the “Calculated SI T. mentagrophytes” value was 0.06 and the “Calculated SI T. rubrum” value is given as 0.06. In series [2], the “Calculated SI C. albicans” value was 0.28, the “Calculated SI C. glabrata” value is given as 0.28, the “Calculated SI C. krusei” value is 0.28 and the “Calculated SI C. neoformans” value was 1.13. Further, the “Calculated SI T. rubrum” value in series [2] is 0.56.
Consider `O=C(NCCc1ccccn1)c1ccc([N+](=O)[O-])o1` [Compound 3, 5-nitro-N-(2-(pyridin-2-yl)ethyl)furan-2-carboxamide], for which, in series [1], the “Calculated SI C. albicans” value is given as 0.92, the “Calculated SI C. glabrata” value is listed as 0.92, the “Calculated SI C. krusei” value is recorded as 0.92 and the “Calculated SI C. neoformans” value was 7.39. In series [1], the “Calculated SI P. brasiliensis” value is recorded as 481.66, the “Calculated SI T. mentagrophytes” value is 3.69 and the “Calculated SI T. rubrum” value is reported as 1.84. Moreover, in series [2], the “Calculated SI C. albicans” value is reported as 1.00, the “Calculated SI C. glabrata” value is on record as 1.00, the “Calculated SI C. krusei” value was 1.00 and the “Calculated SI C. neoformans” value is reported as 8.00. In series [2], the “Calculated SI T. rubrum” value is 2.00.
On to `O=C(NCc1ccccn1)c1ccc([N+](=O)[O-])o1` [Compound 4], for which, in series [1], the “Calculated SI C. albicans” value was 0.11, the “Calculated SI C. glabrata” value is given as 0.11, the “Calculated SI C. krusei” value is given as 0.11 and the “Calculated SI T. mentagrophytes” value is recorded as 0.94. In series [1], the “Calculated SI T. rubrum” value was 0.23. Besides, in series [2], the “Calculated SI C. albicans” value is listed as 0.54, the “Calculated SI C. glabrata” value is reported as 0.54, the “Calculated SI C. krusei” value is recorded as 0.54 and the “Calculated SI C. neoformans” value is on record as 8.66. For the same molecule, in series [2], the “Calculated SI T. rubrum” value is 1.08.
Regarding `COc1ccc(C(=O)/C=C/c2ccc([N+](=O)[O-])o2)cc1` [Compound 12], in series [1], the “Calculated SI C. albicans” value was 1.00, the “Calculated SI C. glabrata” value is 1.00, the “Calculated SI C. krusei” value is 1.00 and the “Calculated SI P. brasiliensis” value is on record as 64.10. In series [1], the “Calculated SI T. mentagrophytes” value was 128.20 and the “Calculated SI T. rubrum” value is recorded as 255.10. Also, in series [2], the “Calculated SI C. albicans” value is given as 0.91, the “Calculated SI C. glabrata” value is recorded as 0.91, the “Calculated SI C. krusei” value is on record as 0.91 and the “Calculated SI C. neoformans” value is 0.91. In addition, in series [2], the “Calculated SI T. rubrum” value was 232.65.
Take `O=C(/C=C/c1ccc([N+](=O)[O-])o1)c1ccccc1` [Compound 8]: in series [1], the “Calculated SI C. albicans” value is recorded as 6.89, the “Calculated SI C. glabrata” value is 6.88, the “Calculated SI C. krusei” value is listed as 0.21 and the “Calculated SI C. neoformans” value is listed as 1.72. Moreover, in series [1], the “Calculated SI P. brasiliensis” value is reported as 55.46, the “Calculated SI T. mentagrophytes” value is listed as 54.89 and the “Calculated SI T. rubrum” value is reported as 54.89. Moreover, in series [2], the “Calculated SI C. albicans” value is 0.85, the “Calculated SI C. glabrata” value is 0.85, the “Calculated SI C. krusei” value was 0.02 and the “Calculated SI C. neoformans” value is 0.21. In series [2], the “Calculated SI T. rubrum” value was 6.79.
For `O=C(NCCCn1ccnc1)c1ccc([N+](=O)[O-])o1` [Compound 2, N-(3-(1H-imidazol-1-yl)propyl)-5-nitrofuran-2-carboxamide], in series [1], the “Calculated SI C. albicans” value is 0.19, the “Calculated SI C. glabrata” value is listed as 0.19, the “Calculated SI C. krusei” value was 0.19 and the “Calculated SI C. neoformans” value is listed as 0.19. In series [1], the “Calculated SI P. brasiliensis” value is 1.57, the “Calculated SI T. mentagrophytes” value is on record as 0.39 and the “Calculated SI T. rubrum” value was 0.39. Further, in series [2], the “Calculated SI C. albicans” value is reported as 0.36, the “Calculated SI C. glabrata” value was 0.36, the “Calculated SI C. krusei” value is recorded as 0.36 and the “Calculated SI C. neoformans” value is on record as 0.36. The “Calculated SI T. rubrum” value in series [2] is reported as 0.72.
`CSc1ccc(C(=O)/C=C/c2ccc([N+](=O)[O-])o2)cc1` [Compound 13]: in series [1], the “Calculated SI C. albicans” value was 0.07, the “Calculated SI C. glabrata” value is reported as 0.07, the “Calculated SI C. krusei” value is on record as 0.07 and the “Calculated SI C. neoformans” value is reported as 0.07. For the same molecule, in series [1], the “Calculated SI P. brasiliensis” value was 18.26, the “Calculated SI T. mentagrophytes” value is recorded as 18.26 and the “Calculated SI T. rubrum” value is on record as 18.26. Also, in series [2], the “Calculated SI C. albicans” value was 0.01, the “Calculated SI C. glabrata” value was 0.01, the “Calculated SI C. krusei” value is 0.01 and the “Calculated SI C. neoformans” value is on record as 0.01. For the same molecule, the “Calculated SI T. rubrum” value in series [2] is reported as 4.23.
With `O=C(/C=C/c1ccc([N+](=O)[O-])o1)c1ccc(Cl)cc1` [Compound 10], in series [1], the “Calculated SI C. albicans” value is 0.15, the “Calculated SI C. glabrata” value is 0.15, the “Calculated SI C. krusei” value is reported as 0.15 and the “Calculated SI C. neoformans” value is 0.15. Also, in series [1], the “Calculated SI P. brasiliensis” value was 39.86, the “Calculated SI T. mentagrophytes” value is reported as 9.91 and the “Calculated SI T. rubrum” value is reported as 9.91. Further, in series [2], the “Calculated SI C. albicans” value is given as 0.86, the “Calculated SI C. glabrata” value is given as 0.86, the “Calculated SI C. krusei” value is 0.86 and the “Calculated SI C. neoformans” value is listed as 0.86. Also, in series [2], the “Calculated SI T. rubrum” value was 55.23.
On to `O=C(/C=C/c1ccc([N+](=O)[O-])o1)c1ccc(Br)cc1` [Compound 11], for which, in series [1], the “Calculated SI C. albicans” value is on record as 0.09, the “Calculated SI C. glabrata” value is 0.04, the “Calculated SI C. krusei” value was 0.04 and the “Calculated SI C. neoformans” value is recorded as 0.04. In series [1], the “Calculated SI P. brasiliensis” value is 12.61, the “Calculated SI T. mentagrophytes” value is 1.56 and the “Calculated SI T. rubrum” value is 1.56. Besides, in series [2], the “Calculated SI C. albicans” value was 0.50, the “Calculated SI C. glabrata” value is reported as 0.25, the “Calculated SI C. krusei” value is recorded as 0.25 and the “Calculated SI C. neoformans” value was 0.25. In addition, the “Calculated SI T. rubrum” value in series [2] is 8.02.
Regarding `O=C(/C=C/c1ccc([N+](=O)[O-])o1)c1ccc(-n2ccnc2)cc1` [Compound 14], in series [1], the “Calculated SI C. albicans” value was 2.14, the “Calculated SI C. krusei” value is 2.14, the “Calculated SI C. neoformans” value is 8.57 and the “Calculated SI P. brasiliensis” value is 17.14. Further, in series [1], the “Calculated SI T. mentagrophytes” value is on record as 17.14 and the “Calculated SI T. rubrum” value was 17.14. In series [2], the “Calculated SI C. albicans” value was 1.71, the “Calculated SI C. krusei” value is listed as 1.71, the “Calculated SI C. neoformans” value is listed as 6.87 and the “Calculated SI T. rubrum” value is listed as 13.74.
Regarding `O=C(/C=C/c1ccc([N+](=O)[O-])o1)c1ccc(F)cc1` [Compound 9], in series [1], the “Calculated SI C. albicans” value is recorded as 1.49, the “Calculated SI C. glabrata” value is listed as 0.74, the “Calculated SI C. krusei” value is reported as 0.09 and the “Calculated SI P. brasiliensis” value is on record as 48.77. In addition, in series [1], the “Calculated SI T. mentagrophytes” value is reported as 12.00 and the “Calculated SI T. rubrum” value was 23.88. Moreover, in series [2], the “Calculated SI C. albicans” value is 3.02, the “Calculated SI C. glabrata” value is 1.51, the “Calculated SI C. krusei” value is recorded as 0.18 and the “Calculated SI C. neoformans” value is listed as 3.02. In series [2], the “Calculated SI T. rubrum” value is given as 48.19.
In the case of `CN(C)CCCNC(=O)c1ccc([N+](=O)[O-])o1` [Compound 6], in series [1], the “Calculated SI C. albicans” value was 0.05, the “Calculated SI C. glabrata” value is 0.05, the “Calculated SI C. krusei” value was 0.05 and the “Calculated SI C. neoformans” value is listed as 0.05. Also, in series [1], the “Calculated SI P. brasiliensis” value is 0.42, the “Calculated SI T. mentagrophytes” value is 0.05 and the “Calculated SI T. rubrum” value was 0.05. For the same molecule, in series [2], the “Calculated SI C. albicans” value is listed as 0.06, the “Calculated SI C. glabrata” value is 0.06, the “Calculated SI C. krusei” value was 0.06 and the “Calculated SI C. neoformans” value was 0.06. In addition, the “Calculated SI T. rubrum” value in series [2] is 0.06.
